What was measured:
[1] = molecular target: T1, Full-length human primosome (Pol α: […]; B subunit: […]; PriS: […]; PriL: […]) (human); test: pull-down; conditions: both partners purified
T1 construct: also called DNA polymerase α - primase complex; Pol α - primase

[2] = molecular target: T2, Truncated human primosome (Pol α: […]; B subunit: […]; PriS: […]; PriL: […]) (human); test: pull-down; conditions: both partners purified
T2 construct: also called truncated primosome; Pol α - primase

B1: MBP-tagged SARS-CoV-2 nsp1 (full-length, His6-MBP fusion) (natural protein)
chain: not shown
[1]
  binding result: binds
[2]
  binding result: binds
